Tests used:
[1] = test system: NIH/3T3 cells; test: Cytotoxicity assay (Alamar Blue) on NIH/3T3 cells; type: cell-based; details: TC50 NIH/3T3 4 days / IC50 intracellular growth
Experimental: (§1) Cells (NIH/3T3 or HepG2) were washed and plated at a density of 50,000 cells/well of 96-well plates in 200 µl and allowed to adhere for 3 h. Twenty-four hour assays were done in DMEM without phenol red supplemented with 10% FBS and Pen-Strep-Glut, while 4-day assays were done in the same medium containing 2% FBS. Drugs were added and mixed. After 1 or 4 days, 20 µl of Alamar Blue (Biosource, Invitrogen) was added. Plates were incubated for 4 h (HepG2) or 6 h (NIH/3T3) at 37°C and fluorescence was read using a Labsystems Fluoroskan II plate reader (excitation: 544 nm, emission: 590 nm) .
(§2) To determine TC50 values, fluorescence was plotted against inhibitor concentration. TC50 was determined as the concentration at which cytotoxicity (fluorescence) was half that in the absence of inhibitor.

[2] = test system: HepG2 cells; test: Cytotoxicity assay (Alamar Blue) on HepG2 cells; type: cell-based, human; details: for Ratio of TC50 to IC50 (HepG2 cells at 24 h): TC50 HepG2 24 h / IC50 intracellular growth; for Ratio of TC50 to IC50 (HepG2 cells at 4 days): TC50 HepG2 4 days / IC50 intracellular growth
Experimental: as §1, §2

| Compound | Ratio of TC50 to IC50 (NIH/3T3 cells at 4 days) [1] | Ratio of TC50 to IC50, HepG2 ([2]; 24 h (1 day)) | Ratio of TC50 to IC50, HepG2 ([2]; 4 days) | Ratio of TC50 to IC50 (HepG2 cells at 24 h) [2] | Ratio of TC50 to IC50 (HepG2 cells at 4 days) [2] |
| --- | --- | --- | --- | --- | --- |
| Cc1cc(OCCCCCCn2ccnc2)cc(C)c1Cl [CX1, 1-[6-(4-chloro-3,5-dimethylphenoxy)hexyl]-1H-imidazole] | ^*690× | over 500 fold | over 500 fold | ^*2400× | ^*530× |
| O=C(NN=Cc1ccc(-c2cccc(Cl)c2Cl)o1)c1ccccn1 [PCH1, N′-{[5-(2,3-dichlorophenyl)-2-furyl]methylene}-2-pyridinecarbohydrazide] | ^*>5500× | over 500 fold | over 500 fold | ^*>5500× | ^*1200× |

From PMC2639639, “Identification of Three Classes of Heteroaromatic Compounds with Activity against Intracellular Trypanosoma cruzi by Chemical Library Screening” (PLoS Neglected Tropical Diseases, 2009)
